Pooled drug test results. Numbers come from NIAID ChemDB, via PubChem.

Common to all: tests on isolated targets; agent: HIV-1; protein: Reverse transcriptase; read-out: IC50

Neighbouring rows are from separate reports. Blank or dashed fields: not listed here. ICn: concentration for n% inhibition.

structure | strain | changes | read by | value
O=S(=O)(O)c1cc(NS(=O)(=O)c2ccc(-c3ccc(S(=O)(=O)Nc4cc(S(=O)(=O)O)c5cccc(S(=O)(=O)O)c5c4)cc3)cc2)cc2c(S(=O)(=O)O)cccc12 | - | - | RT activity | 6.8 µM
Cc1ccc2c(c1)nc(-c1c(F)cccc1F)n2Cc1c(F)cccc1F | - | - | - | >10 µM
O=C1CSC(c2c(F)cccc2Cl)N1c1cccc(C(F)(F)F)c1 | - | - | ELISA | >10 µg/mL
O=C(CC1(O)C(=O)Nc2ccc(Cl)cc21)c1cccc(Cl)c1 | - | - | RT activity / absorbance | 34.25 µM
Nc1ccc(S(=O)(=O)N2CCN(C(=O)c3cc(O)c(O)c(O)c3)CC2)cc1 | BH10 | - | ELISA / nucleotide incorporation | >50 µM
O=C(CSc1nnnn1-c1cccc(Cl)c1Cl)Nc1ccccc1Cl | - | - | nucleotide incorporation / radiometric | <2 µM
Cc1c(C(C)c2c(F)cccc2F)nc(N2CCOCC2)[nH]c1=O | IIIB | RT-V179D | nucleotide incorporation / radiometric | >20 µM
CC(Sc1nnnn1-c1cccc2ccccc12)C(=O)Nc1ccccc1Cl | - | - | nucleotide incorporation / radiometric | <2 µM
CS(=O)(=O)N1CCC(NC(=O)c2cc(O)c(O)c(O)c2)CC1 | BH10 | - | ELISA / nucleotide incorporation | >363.2 µM
CC(C)=CCN1C(=O)c2cccn2-c2ccc(Cl)cc2S1(=O)=O | IIIB | RT-L100I | RT activity | >30 µM
Cc1nc(N2C(=O)CSC2c2c(F)cccc2Cl)ccc1Br | - | - | ELISA | <10 µg/mL
Cc1cccc2c1nc(-c1ccc3ccccc3c1)n2Cc1c(F)cccc1F | - | - | - | >10 µM
COc1cccc(C(=O)CC2(O)C(=O)Nc3ccc(Cl)cc32)c1 | - | - | RT activity / absorbance | 51.31 µM
O=C(CSc1nnnn1-c1ccc2c(c1)OCO2)Nc1ccccc1Cl | - | - | nucleotide incorporation / radiometric | <2 µM
O=C(NC1CCNCC1)c1cc(O)c(O)c(O)c1 | BH10 | - | ELISA / nucleotide incorporation | >475.7 µM
Cc1nc2ccccc2n1Cc1c(F)cccc1F | - | - | - | >10 µM
O=C(CC1(O)C(=O)Nc2ccc(Cl)cc21)c1cccc(Br)c1 | - | - | RT activity / absorbance | 62.14 µM
Cc1cc(S(N)(=O)=O)ccc1NC(=O)COc1ccc(Cl)cc1C(=O)c1cc(Cl)cc(C#N)c1 | - | RT-Y181C | fluorescence | 0.0023 µM
Cc1cc(C)c(-n2nnnc2SCC(=O)Nc2ccc(F)cc2Br)c(C)c1 | - | - | nucleotide incorporation / radiometric | <2 µM
CCN1c2ncc(COc3ccncc3)cc2C(=O)N(C)c2ccc(F)nc21 | WT | - | nucleotide incorporation / radiometric | <1 µM
Cc1cc(C)c(-n2nnnc2SCC(=O)Nc2ccc(S(N)(=O)=O)cc2Cl)c(C)c1 | - | - | nucleotide incorporation / radiometric | <2 µM
O=C(CC1(O)C(=O)Nc2ccccc21)c1ccc(F)cc1 | - | - | RT activity / absorbance | 82.61 µM
CC(C)=CCN1C(C)C(=O)Nc2ccc(Cl)cc2S1(=O)=O | IIIB | RT-Y181C | RT activity | >30 µM
O=C(c1cc(O)c(O)c(O)c1)N1CCN(S(=O)(=O)c2ccc(F)cc2)CC1 | BH10 | - | ELISA / nucleotide incorporation | >50 µM
Cc1ccc(CN2C(=O)CSC2c2c(F)cccc2F)o1 | - | - | ELISA | >10 µg/mL
O=C(CC1(O)C(=O)Nc2ccc(Br)cc21)c1ccccc1Cl | - | - | RT activity / absorbance | 2.03 µM
O=C1CSC(c2ccnc3ccccc23)N1c1ccccn1 | - | - | ELISA | >10 µg/mL
O=C(CC1(O)C(=O)Nc2ccc(Cl)cc21)c1ccc(F)cc1 | - | - | RT activity / absorbance | 5.92 µM
CCN1c2ncc(COc3ccc(F)cc3)cc2C(=O)N(C)c2ccc(Cl)nc21 | WT | - | nucleotide incorporation / radiometric | <1 µM
Cc1ccc2c(nc(-c3c(F)cccc3F)n2Cc2c(F)cccc2F)c1C | - | - | - | >10 µM
CN(C)S(=O)(=O)N1CCN(C(=O)c2cc(O)c(O)c(O)c2)CC1 | BH10 | - | ELISA / nucleotide incorporation | >50 µM
CCN1c2ncc(CCOc3cc[n+]([O-])cc3)cc2C(=O)N(C)c2ccc(Cl)nc21 | - | RT-Y181C | nucleotide incorporation / radiometric | <1 µM
O=C(c1cc(O)c(O)c(O)c1)N1CCNCC1 | BH10 | - | ELISA / nucleotide incorporation | >50 µM
O=C1CSC(c2c(F)cccc2F)N1c1cccc(C(F)(F)F)c1 | - | - | ELISA | >10 µg/mL
Cc1cccc2c1ncn2Cc1c(F)cccc1F | - | - | - | >10 µM
CC(C)=CCN1C(=O)Nc2ccc(Cl)cc2S1(=O)=O | IIIB | - | RT activity | 8.1 µM
Cc1cccc(C)c1-n1nnnc1SCC(=O)Nc1ccccc1Cl | - | - | nucleotide incorporation / radiometric | <2 µM
COc1ccc2c(c1)N(C(=O)OC(C)C)[C@@H](CSC)C(=S)N2 | - | RT-K104R | scintillation proximity / radiometric | 0.08 µM
c1ccc(CSc2nnnn2-c2cccc3ccccc23)nc1 | - | - | nucleotide incorporation / radiometric | <2 µM
O=C(CC1(O)C(=O)Nc2ccc(Br)cc21)c1cccc(Br)c1 | - | - | RT activity / absorbance | 32.37 µM
CCN1c2ncccc2NC(=O)c2cc(CCc3ccccc3)cnc21 | WT | - | nucleotide incorporation / radiometric | <1 µM
Cc1c(Cc2c(F)cccc2F)nc(N(C)C)[nH]c1=O | IIIB | - | nucleotide incorporation / radiometric | 0.8 µM
CCN1c2ncc(CSc3ccncc3)cc2C(=O)N(C)c2ccc(Cl)nc21 | WT | - | nucleotide incorporation / radiometric | <1 µM
Cc1cc(C)c(-n2nnnc2SCC(=O)Nc2cccc(Cl)c2Cl)c(C)c1 | - | - | nucleotide incorporation / radiometric | <2 µM
O=S(=O)(O)c1cc(O)c2c(NS(=O)(=O)c3ccc(-c4ccc(S(=O)(=O)Nc5cc(S(=O)(=O)O)cc6cc(S(=O)(=O)O)cc(O)c56)cc4)cc3)cc(S(=O)(=O)O)cc2c1 | - | - | RT activity | 0.62 µM
Cc1occc1C(=S)Nc1ccc(Cl)c(/C=N/OC(C)(C)C)c1 | - | RT-K103N | - | >100 µM
COc1cc(OC)c(C2SCC(=O)N2c2cccc(C)n2)c(OC)c1 | - | - | ELISA | ~10 µg/mL
C/C=C/CSc1cc(NC(=S)c2ccsc2C)ccc1Cl | - | RT-L74V | - | 7.8 µM
CC(C(=O)CN1CCN(c2ccc(Br)cc2)CC1)N1C(=O)c2ccccc2C1=O | - | - | - | 63.7 µM
CCN1c2ncc(CS(=O)(=O)c3ccccc3)cc2C(=O)N(C)c2ccc(Cl)nc21 | WT | - | nucleotide incorporation / radiometric | <1 µM
CC(=O)N1CCC(NC(=O)c2cc(O)c(O)c(O)c2)CC1 | BH10 | - | ELISA / nucleotide incorporation | >407.7 µM
CCN1c2ncc(CCc3ccncc3)cc2C(=O)N(C)c2ccc(Cl)nc21 | - | RT-Y181C | nucleotide incorporation / radiometric | <1 µM
Cc1cccc(N2C(=O)CSC2c2ccc(N(C)C)cc2)n1 | - | - | ELISA | >10 µg/mL

For reference, 7 entries again:

structure | strain | changes | read by | value
CCN1c2ncc(COc3ccncc3)cc2C(=O)N(C)c2ccc(F)nc21 | WT | - | nucleotide incorporation / radiometric | <1 µM
Cc1occc1C(=S)Nc1ccc(Cl)c(/C=N/OC(C)(C)C)c1 | - | RT-K103N | - | >100 µM
CCN1c2ncccc2NC(=O)c2cc(CCc3ccccc3)cnc21 | WT | - | nucleotide incorporation / radiometric | <1 µM
Cc1c(C(C)c2c(F)cccc2F)nc(N2CCOCC2)[nH]c1=O | IIIB | RT-V179D | nucleotide incorporation / radiometric | >20 µM
Nc1ccc(S(=O)(=O)N2CCN(C(=O)c3cc(O)c(O)c(O)c3)CC2)cc1 | BH10 | - | ELISA / nucleotide incorporation | >50 µM
CCN1c2ncc(CCc3ccncc3)cc2C(=O)N(C)c2ccc(Cl)nc21 | - | RT-Y181C | nucleotide incorporation / radiometric | <1 µM
Cc1ccc2c(nc(-c3c(F)cccc3F)n2Cc2c(F)cccc2F)c1C | - | - | - | >10 µM